Target: human FGFR-5 (full length, GenBank NM-021923 / NP-068742) (human) (UniProt Q8N441)
Assay: cell-based or functional assay

“pseudotyped virus of HCV coated with the E1 and E2 proteins of HCV” was tested, and the infectivity of ΔG/SEAP/HCV E1E2 to CHO/FGFR-5 (relative SEAP activity) was 6 times.

Reference: patent US20080125362A1, “Method of screening compound preventing cells from infection with Hepatitis C virus (HCV)” (Japan Tobacco Inc., priority 2004, published 2008)
